Results of unrelated studies side by side (data: NIAID ChemDB).

All rows: growth or infection tests; species: Aspergillus niger; read-out: MIC100

MIC50, MIC90 and the like: level of inhibition, or share of isolates inhibited.

structure | strain | value
Cn1c(=O)ccc2c3sc(N4CCN(c5ncccn5)CC4)nc3ccc21 | MTCC 282 | 100 µg/mL
Cc1ccc(-c2nc3ccccc3c(=O)n2-c2ccc(C(=O)NN3C(=O)/C(=C/c4ccc(Cl)cc4)SC3c3ccc(F)cc3)cc2)cc1 | MTCC 282 | 500 µg/mL
O=C1CSC(N2N=C(c3ccccc3O)CC2c2cc3ccccc3nc2Cl)=N1 | MTCC 282 | 1000 µg/mL
CCN1CCN(c2nc3ccc4oc(=O)ccc4c3s2)CC1 | MTCC 282 | 250 µg/mL
O=C1CSC(N2N=C(c3ccc([N+](=O)[O-])cc3)CC2c2cc3ccccc3nc2Cl)=N1 | MTCC 282 | 25 µg/mL
c1ccc(-c2n[nH]c(COc3ncnc4ccccc34)n2)cc1 | MTCC 282 | 12.5 µg/mL
CC(=O)Nc1ccc(OCC(=O)N2N=C(c3nc4ccccc4[nH]3)CC2c2cccc(C)c2)cc1 | MTCC 282 | 1000 µg/mL
Cc1ccc(-c2n[nH]c(COc3nc(C(F)(F)F)nc4ccccc34)n2)cc1 | MTCC 282 | 12.5 µg/mL
COc1ccc(/C=C2\SC(c3ccc(F)cc3)N(NC(=O)c3ccc(-n4c(-c5ccc(C)cc5)nc5ccccc5c4=O)cc3)C2=O)cc1 | MTCC 272 | 100 µg/mL
COc1cc(-c2n[nH]c(COc3nc(C(F)(F)F)nc4ccccc34)n2)cc(OC)c1OC | MTCC 282 | 12.5 µg/mL
O=c1ccc2c(ccc3nc(N4CCN(c5ncccn5)CC4)sc32)o1 | MTCC 282 | 100 µg/mL
COc1ccc(-c2n[nH]c(COc3nc(C)nc4ccccc34)n2)cc1OC | MTCC 282 | 12.5 µg/mL
COc1ccc(C2=NN(C3=NC(=O)CS3)C(c3cc4ccccc4nc3Cl)C2)cc1 | MTCC 282 | 500 µg/mL
COc1ccc(C2CC(c3nc4ccccc4[nH]3)=NN2C(=O)COc2ccc(NC(C)=O)cc2)cc1 | MTCC 282 | 250 µg/mL
Cn1c(=O)ccc2c3sc(N4CCN(c5ccccc5)CC4)nc3ccc21 | MTCC 282 | 250 µg/mL
CC(=O)Nc1ccc(OCC(=O)N2N=C(c3nc4ccccc4[nH]3)CC2c2cccc(O)c2)cc1 | MTCC 282 | 500 µg/mL
FC(F)(F)c1nc(OCc2nc(-c3ccc(Br)cc3)n[nH]2)c2ccccc2n1 | MTCC 282 | 12.5 µg/mL
O=C1CSC(N2N=C(c3ccccc3)CC2c2cc3ccccc3nc2Cl)=N1 | MTCC 282 | 1000 µg/mL
CC(=O)Nc1ccc(OCC(=O)N2N=C(c3nc4ccccc4[nH]3)CC2c2ccccc2Cl)cc1 | MTCC 282 | 50 µg/mL
CC(=O)N1CCN(c2nc3ccc4c(ccc(=O)n4C)c3s2)CC1 | MTCC 282 | 250 µg/mL
Cc1ccc(-c2nc3ccccc3c(=O)n2-c2ccc(C(=O)NN3C(=O)/C(=C/c4ccc(Br)cc4)SC3c3ccc(F)cc3)cc2)cc1 | MTCC 282 | 1000 µg/mL
CC1CC(C)CN(c2nc3ccc4oc(=O)ccc4c3s2)C1 | MTCC 282 | 62.5 µg/mL
CC(=O)Nc1ccc(OCC(=O)N2N=C(c3nc4ccccc4[nH]3)CC2c2ccc(C)cc2)cc1 | MTCC 282 | 500 µg/mL
Cc1nc(OCc2nc(-c3ccc(F)cc3)n[nH]2)c2ccccc2n1 | MTCC 282 | 12.5 µg/mL
COc1cccc(C2CC(c3nc4ccccc4[nH]3)=NN2C(=O)COc2ccc(NC(C)=O)cc2)c1 | MTCC 282 | 500 µg/mL
COc1ccc(-c2n[nH]c(COc3ncnc4ccccc34)n2)cc1OC | MTCC 282 | 6.25 µg/mL
Cc1ccc(-c2nc3ccccc3c(=O)n2-c2ccc(C(=O)NN3C(=O)/C(=C/c4ccccc4Cl)SC3c3ccc(F)cc3)cc2)cc1 | MTCC 282 | 100 µg/mL
COc1cc(-c2n[nH]c(COc3ncnc4ccccc34)n2)cc(OC)c1OC | MTCC 282 | 6.25 µg/mL
CC(=O)Nc1ccc(OCC(=O)N2N=C(c3nc4ccccc4[nH]3)CC2c2cccc(F)c2)cc1 | MTCC 282 | 100 µg/mL

Repeating the first 2 entries:

{"structure": "Cn1c(=O)ccc2c3sc(N4CCN(c5ncccn5)CC4)nc3ccc21", "strain": "MTCC 282", "value": "100 µg/mL"}
{"structure": "Cc1ccc(-c2nc3ccccc3c(=O)n2-c2ccc(C(=O)NN3C(=O)/C(=C/c4ccc(Cl)cc4)SC3c3ccc(F)cc3)cc2)cc1", "strain": "MTCC 282", "value": "500 µg/mL"}

Rows are shuffled and stem from different studies.